Assay results as given in patent US20170198014A1, “POLYPEPTIDES AND THEIR USE FOR TREATING INFLUENZA” (UNIVERSITY WASHINGTON THROUGH ITS CENTER FOR …, published 2017).

How the values were obtained:
[1] = target: hemagglutinin H12 A/duck/Alberta/60/1976 (influenza A virus …, UniProt P03446 17-530)
[2] = target: hemagglutinin H11 A/duck/England/1/1956 (influenza A virus A/duck/England/1/1956 …, UniProt P04661 17-531)
[3] = target: hemagglutinin H9 A/turkey/Wisconsin/1/1966 (influenza A virus …, UniProt P03457 19-526)
[4] = target: hemagglutinin H1 A/USSR/90/1977 (influenza A virus A/USSR/90/1977 (H1), UniProt P03453 18-529); assay: BLI (Octet); text of paragraph 293: 'a few strains could not be targeted'
[5] = target: hemagglutinin H2 (A/Adachi/2/1957-H2N2) (influenza A virus A/Adachi/2/1957 (H2N2)); assay: BLI (Octet), biotinylated HA on streptavidin sensors
[6] = target: hemagglutinin H1 A/Beijing/262/1995 (influenza A virus A/Beijing/262/1995 …); assay: as above
[7] = target: hemagglutinin H3 (A/Victoria/361/2011) (influenza A virus A/Victoria/361/2011 …); assay: as above
[8] = target: hemagglutinin H3 A/Panama/2007/1999 (influenza A virus A/Panama/2007/1999 …); assay: as above
[9] = target: hemagglutinin H1 (A/New Caledonia/20/1999) (influenza A virus A/New …); assay: yeast surface display titration

Binder	Kd [1]	binding result [2]	Kd [3]	binding result [4]	Kd [5]	Kd [6]	Kd [7]	Kd [8]	Kd [9]
Hsc1 (SEQ ID NO:135) fused to HAA.1c (SEQ ID NO:227) via the triLong linker (SEQ ID NO: 352), trimer (designed binder) MEEVVLITVPSEEVARTIAKALVEERLAACVNIVPGLTSIYRWQGEVVEDQELLLLVKTTTHAFPKLKERVKALHPYTVPEIVALPIAQGNQEYLDWLRENAGGGGSGGSGIVNVPNCNTTKYQQLARTAVAIYNYHEQAHLTFVENLNCKEQLGEGDYYYITLAATDDAGKKAIYEAKIGVVESAGWTGVEEFKLV	9.2 nM	no binding	9.4 nM	no binding	< 1 nM	2.8 nM	< 1 nM	56.5 nM	
SB24alt1-1 (designed binder) ASGMLAISMDTDKISNSFEDCKYFQLYVLSAGWTNTIFNDESGKEEIVKMSVDAIICKNISEENYKKFSKKIEIYHAEGDDVDKNISLFLEGELSKISNP									436 nM
